Taken from: PubChem BioAssay AID1259414 (Drosophila RNAi Screening Center, 2018)
In all, the deposit lists about 24,000 reagents; this is a random part of those that have a named target and a result. Of all reagents, about 1,210 (5%) got an active call. 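Inactive calls also include excluded dsRNAs with several or no targets, genes unexpressed in JW18, and well A1, regardless of score.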 Names joined by + are all predicted targets of the reagent.

- Purpose: 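Host factors increasing or decreasing Wolbachia levels in cultured fly cells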 (primary screen)
- Cells: Drosophila JW18 cells infected with Wolbachia
- Reagent: long dsRNA against Drosophila genes, 0.25 µg dsRNA per well of a 384-well plate
- Timing: 5 days
- Challenge: cells persistently infected with Wolbachia before knock-down; no added drug
- Detection: 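Imaged fluorescence in situ signal for Wolbachia 23S rRNA per DAPI-counted host cell, given as a robust z-score within each plate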
- Scale: Wolbachia per cell robust z: higher = more Wolbachia per host cell than the plate typical
- Active means: 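Hit when robust z is 1.5 or more, or -1.5 or less, in at least two of three replicates; excludes dsRNAs with several or no targets, genes not expressed in JW18 and well A1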

gene knocked down | amplicon | Wolbachia per cell robust z, rep 1 | Wolbachia per cell robust z, rep 2 | Wolbachia per cell robust z, rep 3 | call
CG10481 | DRSC02063 | 0.828 | 0.669 | 1.42 | inactive
CG5056 | DRSC02808 | -0.00387 | 0.434 | -0.553 | inactive
Inos | DRSC07655 | -1.85 | -2.35 | 1.59 | active
Inos | DRSC27019 | -1.9 | -0.699 | 0.29 | inactive
mal | DRSC20581 | 1.38 | 0.328 | -1.04 | inactive
mal | DRSC27085 | 0.818 | 1.35 | 0.48 | inactive
CG4709 | DRSC02772 | -6.12 | -0.722 | -0.862 | inactive
Ntmt | DRSC06624 | 0.958 | -2.24 | 0.304 | inactive
Ntmt | DRSC28647 | 0.165 | 0.845 | -0.675 | inactive
CG18428 | DRSC15326 | -4.88 | -1.33 | 0.0707 | inactive
CG18428 | DRSC29185 | 0.576 | 0.045 | -0.119 | inactive
Oatp30B | DRSC02727 | -1.05 | 0.225 | 0.0658 | inactive
CG32683 | DRSC17990 | -0.0747 | 0.171 | -5.53 | inactive
CG32683 | DRSC18232 | -1.19 | -0.75 | 0.304 | inactive
CG32683 | DRSC18233 | 0.011 | 0.461 | -0.284 | inactive
CG32683 | DRSC29475 | 0.511 | 0.435 | -0.27 | inactive
Not1 | DRSC06787 | 1.25 | -0.559 | 0.644 | inactive
Not1 | DRSC06794 | -1.71 | -0.256 | 0.743 | inactive
CROT | DRSC14518 | -0.253 | 0.738 | -0.188 | inactive
CROT | DRSC14519 | 0.311 | -3.36 | -4.19 | active
CROT | DRSC27733 | -0.862 | 0.971 | 0.535 | inactive
maca | DRSC15738 | 1.18 | 1.73 | 2.7 | inactive
CG11123 | DRSC06040 | -0.54 | -2.84 | -0.666 | inactive
CG11123 | DRSC28420 | 0.882 | 0.605 | 0.0917 | inactive
Spn77Bb + Spn77Bc | DRSC10689 | -3.61 | -0.531 | -7.61 | inactive
CG15293 | DRSC01919 | -0.472 | -0.161 | -0.747 | inactive
rogdi | DRSC10906 | 0.237 | 0.372 | -0.0864 | inactive
CG13476 | DRSC10019 | -0.82 | -1.37 | -0.759 | inactive
CG11263 | DRSC09832 | 0.91 | 1.45 | 0.258 | inactive
GluRIB | DRSC10258 | 0.184 | -0.536 | -0.392 | inactive
GluRIB | DRSC11177 | 0.541 | 0.285 | -0.888 | inactive
GluRIB | DRSC25464 | -0.625 | -2.29 | -0.491 | inactive
osp | DRSC01409 | -4.08 | 0.184 | 0.0447 | inactive
osp | DRSC03585 | 0.38 | 0.911 | -0.102 | inactive
CG42655 | DRSC40518 | -2.68 | -0.117 | -0.677 | inactive
swi2 | DRSC06457 | -0.341 | 0.485 | 0.138 | inactive
MnM | DRSC08423 | -2.13 | -1.16 | -1.21 | inactive
CG6695 | DRSC16098 | 0.224 | 1.27 | 0.465 | inactive
CG6695 | DRSC24623 | -0.0529 | -1.17 | -1.06 | inactive
Fip1 | DRSC12147 | -0.316 | 0.673 | 0.574 | inactive
Ptpmeg | DRSC08684 | 1.11 | -4.67 | 0.896 | inactive
Ptpmeg | DRSC26348 | -0.0281 | -1.22 | 0.656 | inactive
Cat | DRSC11110 | 0.243 | 0.282 | -0.247 | inactive
Cat | DRSC24077 | -4.49 | -0.303 | 0.955 | inactive
Cat | DRSC38942 | 0.596 | 0.127 | -0.342 | inactive
CG14629 | DRSC18476 | 0.161 | -0.109 | -1.11 | inactive
CG14629 | DRSC23909 | -0.125 | 0.629 | 1.02 | inactive
CG14569 | DRSC11730 | -1.74 | 1.55 | -0.782 | inactive
Creld | DRSC00308 | 0.123 | 0.367 | 0.295 | inactive
Creld | DRSC29338 | -1.89 | -0.0715 | -0.631 | inactive
Rab14 | DRSC03403 | -6.11 | -0.202 | -1.07 | inactive
Rab14 | DRSC28941 | 0.529 | -0.386 | 0.384 | inactive
Snr1 | DRSC12369 | -0.0589 | 0.00654 | -0.658 | inactive
CG4741 | DRSC04485 | 0.428 | 0.106 | -5.01 | inactive
CG4741 | DRSC25673 | -1.65 | -0.269 | 0.22 | inactive
mus302 | DRSC09905 | 0.879 | 0.833 | 1.43 | inactive
CG14830 | DRSC08876 | -0.0731 | -0.258 | -0.612 | inactive
CG33298 | DRSC02210 | -0.367 | -0.403 | -0.467 | inactive
CG33298 | DRSC02672 | 0.736 | 0.883 | 0.315 | inactive
CG30022 | DRSC22405 | -0.126 | -0.747 | -2.43 | inactive
CG42700 | DRSC06293 | -1.01 | -1.07 | -0.389 | inactive
CG42700 | DRSC23109 | 1.34 | 1.03 | 0.953 | inactive
CG42700 | DRSC27344 | 0.299 | 0.887 | 1.06 | inactive
Blos1 | DRSC05970 | 0.725 | 1.09 | -1.09 | inactive
CG15548 | DRSC15086 | 0.286 | 0.679 | -2.52 | inactive
CG15548 | DRSC26941 | 0.0972 | 0.779 | 2.71 | inactive
RpS7 | DRSC15394 | 2.09 | 2.27 | 1.84 | active
RpS7 | DRSC28468 | -0.0439 | 2.37 | 1.32 | inactive

Looked up above:
Value of Cat [DRSC11110] in “Wolbachia per cell robust z, rep 1”: 0.243
Value for swi2 [DRSC06457] under “Wolbachia per cell robust z, rep 1”: -0.341
Value for CG10481 [DRSC02063] under “Wolbachia per cell robust z, rep 1”: 0.828
Value for Not1 [DRSC06787] in “Wolbachia per cell robust z, rep 2”: -0.559
Entry of CG18428 [DRSC15326] in “Wolbachia per cell robust z, rep 1”: -4.88
For “Wolbachia per cell robust z, rep 2”, CG15293 [DRSC01919] has -0.161
